{"source": "PubChem BioAssay AID504761 | Drosophila RNAi Screening Center | 2011", "test": "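Insect host genes that dengue virus relies on to spread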 (primary screen)", "cells": "D.Mel-2 cells from Drosophila", "reagent": "long dsRNA against Drosophila genes", "conditions": "infection with dengue virus type 2; dose and infection time not stated", "measured": "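Cells stained for dengue envelope protein and imaged; percent of infected cells per well on duplicate plates, ranked by infection, with stained nuclei counted for cell number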", "direction": "infection score: higher = more virus-infected cells; cell count: higher = more cells in the well", "call rule": "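Low infection ranks in the two replicates (chance level up to 0.065) followed by a retest with a 1.5-fold or larger significant decrease, p below 0.05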", "calls": "active = confirmed: knock-down lowers infection; inactive = not picked or not confirmed", "note": "The screen tested about 22,000 reagents; below is a random part of those that have a named target and a result. In the full data, 116 (0.52%) got an active call. 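Calls depend on retest data that are not deposited; infection was ranked per plate without normalising between plates; the unit of the infection score is not given.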 Raw values vary from plate to plate and are shown uncorrected. Unmarked entries are inactive. The numbers tell different reagents against one gene apart. Not all columns of the deposit are shown. Reagent sequences are not shown. Not stated in the record: the amount of reagent, the time to read-out."}
{"target gene": "nudE", "dsRNA no.": 1, "infection score, replicate 1": 7.86, "cell count, replicate 1": 6170}
{"target gene": "nudE", "dsRNA no.": 2, "infection score, replicate 1": 2.78, "cell count, replicate 1": 6223}
{"target gene": "nudE", "dsRNA no.": 3, "infection score, replicate 1": 5.16, "cell count, replicate 1": 6101}
{"target gene": "Vha68-3 (Vacuolar H[+] ATPase 68kD subunit 3)", "dsRNA no.": 1, "infection score, replicate 1": 11.2, "cell count, replicate 1": 5662}
{"target gene": "Vha68-3 (Vacuolar H[+] ATPase 68kD subunit 3)", "dsRNA no.": 2, "infection score, replicate 1": 2.77, "cell count, replicate 1": 6105}
{"target gene": "CG5126", "dsRNA no.": 1, "infection score, replicate 1": 1.13, "cell count, replicate 1": 6182}
{"target gene": "NiPp1 (Nuclear inhibitor of Protein phosphatase 1)", "dsRNA no.": 1, "infection score, replicate 1": 7.5, "cell count, replicate 1": 5683}
{"target gene": "CG12054", "dsRNA no.": 1, "infection score, replicate 1": 1.6, "cell count, replicate 1": 5996}

The list goes on (2 carried over from the part before).
{"target gene": "NiPp1 (Nuclear inhibitor of Protein phosphatase 1)", "dsRNA no.": 1, "infection score, replicate 1": 7.5, "cell count, replicate 1": 5683}
{"target gene": "CG12054", "dsRNA no.": 1, "infection score, replicate 1": 1.6, "cell count, replicate 1": 5996}
{"target gene": "Kcmf1 (Potassium channel modulatory factor 1)", "dsRNA no.": 1, "infection score, replicate 1": 17.1, "cell count, replicate 1": 5244}
{"target gene": "Kcmf1 (Potassium channel modulatory factor 1)", "dsRNA no.": 2, "infection score, replicate 1": 10.4, "cell count, replicate 1": 5760}
{"target gene": "Med (Medea)", "dsRNA no.": 1, "infection score, replicate 1": 1.1, "cell count, replicate 1": 6105}
{"target gene": "LanB2 (Laminin B2)", "dsRNA no.": 1, "infection score, replicate 1": 9.22, "cell count, replicate 1": 6629}
{"target gene": "SdhCL (Succinate dehydrogenase, subunit C-like)", "dsRNA no.": 1, "infection score, replicate 1": 8.87, "cell count, replicate 1": 6808}
{"target gene": "ais (aramis)", "dsRNA no.": 1, "infection score, replicate 1": 11.1, "cell count, replicate 1": 5387}
{"target gene": "ais (aramis)", "dsRNA no.": 2, "infection score, replicate 1": 4.75, "cell count, replicate 1": 6615}
